Tests used:
[1] = biological target: Nicotinic acetylcholine receptor alpha9/alpha10 (Rattus norvegicus) (UniProt P43144+Q9JLB5); experiment: Antagonist activity at rat alpha9alpha10 nACh receptor expressed in Xenopus oocyte assessed as inhibition of acetylcholine-induced response at -70 mV holding potential by measuring ratio of IC50 by voltage-clamp based electrophysiological assay relative to GeXIVA; assay type: cell-based; conditions: filed as antagonist
Rattus norvegicus = organism: Rattus norvegicus; experiment: Selectivity ratio of IC50 for rat alpha7 nACh receptor to IC50 for rat alpha9alpha10 nACh receptor
[2] = biological target: Neuronal acetylcholine receptor subunit alpha-7 (Rattus norvegicus) (UniProt Q05941); experiment: Antagonist activity at rat alpha7 nACh receptor expressed in Xenopus oocyte assessed as inhibition of acetylcholine-induced response at -70 mV holding potential by measuring ratio of IC50 by voltage-clamp based electrophysiological assay relative to GeXIVA; conditions: filed as antagonist

By UniProt entry, the sequences of proteins in these tests, tags left out. Where a name states a change or a piece, a line headed by the entry shows the natural chain unless it says otherwise.
UniProt P43144: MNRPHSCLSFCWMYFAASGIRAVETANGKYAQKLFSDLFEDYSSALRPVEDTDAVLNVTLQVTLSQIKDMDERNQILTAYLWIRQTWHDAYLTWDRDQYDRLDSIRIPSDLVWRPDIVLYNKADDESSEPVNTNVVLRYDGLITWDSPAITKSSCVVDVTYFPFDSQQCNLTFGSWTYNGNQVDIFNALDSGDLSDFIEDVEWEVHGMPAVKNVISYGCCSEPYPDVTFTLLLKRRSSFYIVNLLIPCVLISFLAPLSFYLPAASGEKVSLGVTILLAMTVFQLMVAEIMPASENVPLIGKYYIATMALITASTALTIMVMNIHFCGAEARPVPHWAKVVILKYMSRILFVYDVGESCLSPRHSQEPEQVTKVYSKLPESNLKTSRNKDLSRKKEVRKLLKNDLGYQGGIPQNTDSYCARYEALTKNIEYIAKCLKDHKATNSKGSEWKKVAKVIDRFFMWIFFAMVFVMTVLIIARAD
UniProt Q9JLB5: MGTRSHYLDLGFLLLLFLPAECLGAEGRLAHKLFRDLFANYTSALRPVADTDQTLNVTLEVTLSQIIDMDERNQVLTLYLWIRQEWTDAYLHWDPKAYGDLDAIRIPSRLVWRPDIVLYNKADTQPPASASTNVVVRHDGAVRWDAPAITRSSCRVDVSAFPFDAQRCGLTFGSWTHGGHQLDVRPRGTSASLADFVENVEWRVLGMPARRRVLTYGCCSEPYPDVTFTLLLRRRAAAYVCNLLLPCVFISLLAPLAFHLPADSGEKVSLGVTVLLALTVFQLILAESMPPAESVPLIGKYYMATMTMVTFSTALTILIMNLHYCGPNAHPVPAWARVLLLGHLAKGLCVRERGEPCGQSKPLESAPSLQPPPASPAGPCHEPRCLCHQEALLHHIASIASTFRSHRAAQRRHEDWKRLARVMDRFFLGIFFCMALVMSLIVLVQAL
UniProt Q05941, whole entry, looked up: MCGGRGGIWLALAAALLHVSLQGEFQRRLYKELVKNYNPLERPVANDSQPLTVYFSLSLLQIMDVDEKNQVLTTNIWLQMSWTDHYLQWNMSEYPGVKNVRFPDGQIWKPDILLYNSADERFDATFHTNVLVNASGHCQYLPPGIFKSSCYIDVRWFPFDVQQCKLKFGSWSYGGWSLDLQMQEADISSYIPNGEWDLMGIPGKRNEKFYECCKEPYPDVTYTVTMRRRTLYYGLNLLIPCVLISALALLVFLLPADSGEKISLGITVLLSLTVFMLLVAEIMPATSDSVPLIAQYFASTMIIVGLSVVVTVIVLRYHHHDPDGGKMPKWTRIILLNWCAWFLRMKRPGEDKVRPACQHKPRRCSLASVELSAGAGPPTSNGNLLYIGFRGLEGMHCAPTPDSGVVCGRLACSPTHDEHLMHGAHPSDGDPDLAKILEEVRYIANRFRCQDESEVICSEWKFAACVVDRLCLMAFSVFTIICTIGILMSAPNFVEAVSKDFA

SMILES | Ratio IC50 [1] | Ratio IC50 (Rattus norvegicus) | Ratio IC50 [2]
CC[C@H](C)[C@@H]1NC(=O)[C@H](CCCNC(=N)N)NC(=O)[C@H](CCCNC(=N)N)NC(=O)[C@@H](NC(=O)[C@H](Cc2ccc(O)cc2)NC(=O)[C@H](CCCNC(=N)N)NC(=O)[C@H](CCCNC(=N)N)NC(=O)[C@H](CCCNC(=N)N)NC(=O)[C@H](CCCNC(=N)N)NC(=O)[C@H](CC(=O)O)NC(=O)[C@H](Cc2ccc(O)cc2)NC(=O)[C@@H]2CCCN2C(=O)[C@H](CO)NC(=O)[C@H](CCCNC(=N)N)NC(=O)[C@@H]2CSSC[C@H](NC(=O)[C@@H](N)[C@@H](C)O)C(=O)N[C@@H](CCCNC(=N)N)C(=O)N[C@@H](C)C(=O)N[C@@H](CO)C(=O)NCC(=O)N[C@@H](CCCNC(=N)N)C(=O)N[C@@H](Cc3ccc(O)cc3)C(=O)N2)CSSC[C@@H](C(=O)N[C@H](C(=O)O)C(C)C)NC(=O)[C@H](C)NC(=O)[C@H](CC(=O)O)NC(=O)[C@H]([C@@H](C)O)NC1=O | 1.2 | 104 | 2.2
CC[C@H](C)[C@@H]1NC(=O)[C@H](CCCNC(=N)N)NC(=O)[C@H](CCCNC(=N)N)NC(=O)[C@@H](NC(=O)[C@H](Cc2ccc(O)cc2)NC(=O)[C@H](CCCNC(=N)N)NC(=O)[C@H](CCCNC(=N)N)NC(=O)[C@H](CCCNC(=N)N)NC(=O)[C@H](CCCNC(=N)N)NC(=O)[C@H](CC(=O)O)NC(=O)[C@H](Cc2ccc(O)cc2)NC(=O)[C@@H]2CCCN2C(=O)[C@H](CO)NC(=O)[C@H](CCCNC(=N)N)NC(=O)[C@@H]2CSSC[C@H](NC(=O)[C@@H](N)[C@@H](C)O)C(=O)N[C@@H](CCCNC(=N)N)C(=O)N[C@@H](CO)C(=O)N[C@@H](CO)C(=O)NCC(=O)N[C@@H](C)C(=O)N[C@@H](Cc3ccc(O)cc3)C(=O)N2)CSSC[C@@H](C(=O)N[C@H](C(=O)O)C(C)C)NC(=O)[C@H](C)NC(=O)[C@H](CC(=O)O)NC(=O)[C@H]([C@@H](C)O)NC1=O | 3.7 | 105 | 7.1
CC[C@H](C)[C@@H]1NC(=O)[C@H](CCCNC(=N)N)NC(=O)[C@H](C)NC(=O)[C@@H](NC(=O)[C@H](Cc2ccc(O)cc2)NC(=O)[C@H](CCCNC(=N)N)NC(=O)[C@H](CCCNC(=N)N)NC(=O)[C@H](CCCNC(=N)N)NC(=O)[C@H](CCCNC(=N)N)NC(=O)[C@H](CC(=O)O)NC(=O)[C@H](Cc2ccc(O)cc2)NC(=O)[C@@H]2CCCN2C(=O)[C@H](CO)NC(=O)[C@H](CCCNC(=N)N)NC(=O)[C@@H]2CSSC[C@H](NC(=O)[C@@H](N)[C@@H](C)O)C(=O)N[C@@H](CCCNC(=N)N)C(=O)N[C@@H](CO)C(=O)N[C@@H](CO)C(=O)NCC(=O)N[C@@H](CCCNC(=N)N)C(=O)N[C@@H](Cc3ccc(O)cc3)C(=O)N2)CSSC[C@@H](C(=O)N[C@H](C(=O)O)C(C)C)NC(=O)[C@H](C)NC(=O)[C@H](CC(=O)O)NC(=O)[C@H]([C@@H](C)O)NC1=O | 1.2 | 77.1 | 1.7
CC[C@H](C)[C@@H]1NC(=O)[C@H](CCCNC(=N)N)NC(=O)[C@H](CCCNC(=N)N)NC(=O)[C@@H](NC(=O)[C@H](Cc2ccc(O)cc2)NC(=O)[C@H](CCCNC(=N)N)NC(=O)[C@H](CCCNC(=N)N)NC(=O)[C@H](CCCNC(=N)N)NC(=O)[C@H](C)NC(=O)[C@H](CC(=O)O)NC(=O)[C@H](Cc2ccc(O)cc2)NC(=O)[C@@H]2CCCN2C(=O)[C@H](CO)NC(=O)[C@H](CCCNC(=N)N)NC(=O)[C@@H]2CSSC[C@H](NC(=O)[C@H](N)[C@H](C)O)C(=O)N[C@@H](CCCNC(=N)N)C(=O)N[C@@H](CO)C(=O)N[C@@H](CO)C(=O)NCC(=O)N[C@@H](CCCNC(=N)N)C(=O)N[C@@H](Cc3ccc(O)cc3)C(=O)N2)CSSC[C@@H](C(=O)N[C@H](C(=O)O)C(C)C)NC(=O)[C@H](C)NC(=O)[C@H](CC(=O)O)NC(=O)[C@H]([C@@H](C)O)NC1=O | 2.7 | 140 | 6.9
CC[C@H](C)[C@H]1NC(=O)[C@H](CCCNC(=N)N)NC(=O)[C@H](CCCNC(=N)N)NC(=O)[C@@H](NC(=O)[C@H](Cc2ccc(O)cc2)NC(=O)[C@H](CCCNC(=N)N)NC(=O)[C@H](CCCNC(=N)N)NC(=O)[C@H](CCCNC(=N)N)NC(=O)[C@H](CCCNC(=N)N)NC(=O)[C@H](CC(=O)O)NC(=O)[C@H](Cc2ccc(O)cc2)NC(=O)[C@@H]2CCCN2C(=O)[C@H](CO)NC(=O)[C@H](CCCNC(=N)N)NC(=O)[C@@H]2CSSC[C@H](NC(=O)[C@@H](N)[C@@H](C)O)C(=O)N[C@@H](C)C(=O)N[C@@H](CO)C(=O)N[C@@H](CO)C(=O)NCC(=O)N[C@@H](CCCNC(=N)N)C(=O)N[C@@H](Cc3ccc(O)cc3)C(=O)N2)CSSC[C@@H](C(=O)N[C@H](C(=O)O)C(C)C)NC(=O)[C@H](C)NC(=O)[C@H](CC(=O)O)NC(=O)[C@H]([C@@H](C)O)NC1=O | 6.2 | 61.1 | 7
CC[C@H](C)[C@@H]1NC(=O)[C@H](CCCNC(=N)N)NC(=O)[C@H](CCCNC(=N)N)NC(=O)[C@@H](NC(=O)[C@H](Cc2ccc(O)cc2)NC(=O)[C@H](CCCNC(=N)N)NC(=O)[C@H](CCCNC(=N)N)NC(=O)[C@H](CCCNC(=N)N)NC(=O)[C@H](CCCNC(=N)N)NC(=O)[C@H](C)NC(=O)[C@H](Cc2ccc(O)cc2)NC(=O)[C@@H]2CCCN2C(=O)[C@H](CO)NC(=O)[C@H](CCCNC(=N)N)NC(=O)[C@@H]2CSSC[C@H](NC(=O)[C@@H](N)[C@@H](C)O)C(=O)N[C@@H](CCCNC(=N)N)C(=O)N[C@@H](CO)C(=O)N[C@@H](CO)C(=O)NCC(=O)N[C@@H](CCCNC(=N)N)C(=O)N[C@@H](Cc3ccc(O)cc3)C(=O)N2)CSSC[C@@H](C(=O)N[C@H](C(=O)O)C(C)C)NC(=O)[C@H](C)NC(=O)[C@H](CC(=O)O)NC(=O)[C@H]([C@@H](C)O)NC1=O | 1.2 | 40 | 0.9

— ChEMBL document CHEMBL5346973 (J Med Chem, 2023)
